Anti-infective test results gathered from many reports (values: NIAID ChemDB through PubChem).

Common to all: whole-cell or culture tests; agent: Hepatitis B virus; read-out: EC50

Neighbouring rows are from separate reports. a–b is a range or a potency band. ECn: concentration that inhibits the pathogen or its effect by n%.

{"SMILES": "COC(=O)C1=C(CN2CC(F)(F)[C@@H]3[C@H]2CON3C[C@H](O)C(C)(C)C(=O)O)NC(c2nccs2)=N[C@H]1c1ccc(F)c(F)c1C", "cells": "HepG2.2.15", "read by": "PCR", "result": "0.045 µM"}
{"SMILES": "CS(=O)(=O)c1ccc(-c2ccc3ncnc(Nc4ccc(N5CCOCC5)cc4)c3c2)cc1", "cells": "HUH 9B", "read by": "replicon", "result": "<1 µM"}
{"SMILES": "COCCCOc1cc2c(cc1C(=O)N(C)C)-c1c(cc(C(=O)O)c(=O)n1C1CC1)CS2(=O)=O", "cells": "Primary human hepatocytes", "read by": "antigen / visual reading / absorbance", "result": ">0.5 µM"}
{"SMILES": "Cc1cc(NC(=O)c2c3c(cn2C)S(=O)(=O)N[C@H]2CN(C(=O)C(=O)N[C@H](C)C(F)(F)F)C[C@H]2CO3)ccc1F", "mutations": "Y118F", "cells": "HepG2", "read by": "PCR", "result": "0.00637 µM"}
{"SMILES": "Cn1nnnc1-c1ccc(-n2c(=O)c3c(n4ncc(Cc5ccccc5)c24)CN(C(=O)c2ccc(Br)c(Cl)c2)CC3)cc1", "cells": "HepG2.117", "read by": "luminescence", "result": "≤0.05 µM"}
{"SMILES": "CCOC(=O)C1=C(CN2CC(F)(F)[C@H]3[C@@H]2CCN3CC[C@@](C)(O)C(=O)O)NC(c2nccs2)=N[C@H]1c1ccc(F)c(F)c1F", "cells": "HepG2.2.15", "read by": "PCR", "result": "0.068 µM"}
{"SMILES": "Cn1nc2cc(NS(=O)(=O)NC3CN(C(=O)OC(C)(C)C)C3)ccc2c1C(=O)Nc1ccc(F)c(Cl)c1", "cells": "HepAD38", "read by": "PCR", "result": "100–1000 µM"}
{"SMILES": "C#CCNC(=O)C(=O)c1cn(C)c(C(=O)Nc2ccc(F)c(C#N)c2)c1F", "cells": "HepG2.2.15", "read by": "PCR", "result": "0.1–0.999 µM"}
{"SMILES": "CNc1n[nH]c2cc(-n3c(=O)c4c(n5ncc(CC(C)C)c35)CN(C(=O)c3ccc(Cl)c(C(F)(F)F)c3)[C@H](C)C4)ccc12", "cells": "HepG2.117", "read by": "luminescence", "result": "≤0.05 µM"}
{"SMILES": "Cn1nc2cc(NS(=O)(=O)NCc3ccccn3)ccc2c1C(=O)Nc1ccc(F)c(Cl)c1", "cells": "HepAD38", "read by": "PCR", "result": "<100 µM"}
{"SMILES": "C[C@@H](NC(=O)C(=O)N1C[C@H]2COc3c(cn(C)c3C(=O)Nc3ccc(F)c(C(F)F)c3)S(=O)(=O)N[C@H]2C1)C(F)(F)F", "cells": "HepAD38", "read by": "PCR", "result": "<0.5 µM"}
{"SMILES": "Cn1cc(-c2cc3c(cc2Cl)-c2c(cc(C(=O)O)c(=O)n2C2CC2)CS3(=O)=O)cn1", "cells": "Primary human hepatocytes", "read by": "antigen / visual reading / absorbance", "result": ">0.1 µM"}
{"SMILES": "CNC(=O)C(=O)N1C[C@H]2CSc3c(cn(C)c3C(=O)Nc3ccc(F)c(C)c3)S(=O)(=O)N[C@H]2C1", "cells": "HepAD38", "read by": "PCR", "result": "<0.5 µM"}
{"SMILES": "Cn1nc2cc(NS(=O)(=O)c3ccccn3)ccc2c1C(=O)Nc1ccc(F)c(Cl)c1", "cells": "HepAD38", "read by": "PCR", "result": "100–1000 µM"}
{"SMILES": "O=C1NNC(=O)c2c(ncn2[C@@H]2O[C@H](CO)[C@@H](O)[C@H]2O)N1", "cells": "2.2.15", "result": ">30 µM"}
{"SMILES": "Cc1nc(-c2ccc(-n3c(=O)c4c(n5ncc(CC(C)C)c35)CN(C(=O)c3ccc(Br)c(Cl)c3)[C@@H](C)C4)cc2)n[nH]1", "cells": "HepG2.117", "read by": "luminescence", "result": "0.05–0.5 µM"}
{"SMILES": "CCOC(=O)C1=C(CN2CC(F)(F)[C@@H]3[C@H]2CON3C[C@H](O)C(C)(C)C(=O)O)NC(c2nccs2)=N[C@H]1c1ccc(F)c(F)c1F", "cells": "HepG2.2.15", "read by": "PCR", "result": "0.0455 µM"}
{"SMILES": "CNC(=O)c1cnc(-n2c(=O)c3c(n4ncc(CC(C)C)c24)CN(C(=O)c2ccc(Br)c(C(F)(F)F)c2)[C@H](C)C3)nc1", "cells": "HepG2.117", "read by": "luminescence", "result": "≤0.05 µM"}
{"SMILES": "CS(=O)(=O)CCNCc1ccc(-c2ccc3ncnc(Nc4ccc(N5CCOCC5)cc4)c3c2)o1", "cells": "HUH 9B", "read by": "replicon", "result": "<1 µM"}
{"SMILES": "Cc1n[nH]nc1-c1cc(-n2c(=O)c3c(n4ncc(Cc5ccccc5)c24)CN(C(=O)c2ccc(Br)c(C(F)(F)F)c2)[C@@H](C)C3)nn1C", "cells": "HepG2.117", "read by": "luminescence", "result": "0.05–0.5 µM"}
{"SMILES": "C[C@@H]1Cn2c(c3n(c2=O)C[C@H](F)CN(Cc2ccccc2)C3=O)CN1C(=O)c1ccc(Br)c(Cl)c1", "cells": "HepG2.117", "read by": "PCR", "result": "0.1–0.5 µM"}
{"SMILES": "FC(F)(F)c1cc(N2CCOCC2)ccc1Nc1ncnc2ccc(-c3cccs3)cc12", "cells": "HUH 9B", "read by": "replicon", "result": "<1 µM"}
{"SMILES": "C#CC(C)(C)NC(=O)C(=O)c1c(C)c(C(=O)Nc2ccc(F)c(C(F)(F)F)c2)n(C)c1C", "cells": "HepG2.2.15", "read by": "PCR", "result": "<0.001 µM"}
{"SMILES": "O=C(NCc1ccccc1)c1c2n(c(=O)n1-c1ccc3occc3c1)CCN(C(=O)c1ccc(Cl)c(Cl)c1)C2", "cells": "HepG2.117", "read by": "PCR", "result": "0.5–5 µM"}
{"SMILES": "COC(=O)C1=C(CN2CC(F)(F)[C@@H]3[C@H]2CON3C[C@H](OC)C(C)(C)C(=O)O)NC(c2ncoc2C)=N[C@H]1c1ccc(F)cc1Cl", "cells": "HepG2.2.15", "read by": "PCR", "result": "0.062 µM"}
{"SMILES": "CC[C@H](NC(=O)c1c2n(c(=O)n1-c1ccc(OC)cc1)CCN(C(=O)c1ccc(Br)c(Cl)c1)C2)c1ccccc1", "cells": "HepG2.117", "read by": "PCR", "result": "0.1–0.5 µM"}
{"SMILES": "CN(C)Cc1ccc(-c2ccc3ncnc(Nc4ccc(N5CCOCC5)cc4)c3c2)o1", "cells": "HUH 9B", "read by": "replicon", "result": "1–5 µM"}
{"SMILES": "COCCCOc1cc2c(cc1I)-c1c(cc(C(=O)O)c(=O)n1C1CC1)C(C)S2(=O)=O", "cells": "Primary human hepatocytes", "read by": "antigen / visual reading / absorbance", "result": "0.05–0.1 µM"}
{"SMILES": "O=C(Nc1ccc(-c2ccc3ncnc(Nc4ccc(N5CCOCC5)cc4)c3c2)cc1)OCc1ccccc1", "cells": "HUH 9B", "read by": "replicon", "result": "<1 µM"}
{"SMILES": "COCCCOc1cc2c(cc1-c1ccccc1)-c1c(cc(C(=O)O)c(=O)n1C1CC1)C(C)S2(=O)=O", "cells": "Primary human hepatocytes", "read by": "antigen / visual reading / absorbance", "result": ">0.5 µM"}
{"SMILES": "COc1ccc(-n2c(C(=O)NCc3ccccc3)c3n(c2=O)CCN(C(=O)c2ccc(Cl)c(Cl)c2)C3)c(F)c1", "cells": "HepG2.17", "read by": "PCR", "result": "0.5–5 µM"}
{"SMILES": "Cn1nc2cc(NS(=O)(=O)c3cnn(-c4cc(F)ccn4)c3)ccc2c1C(=O)Nc1ccc(F)c(Cl)c1", "cells": "HepAD38", "read by": "PCR", "result": ">1000 µM"}
{"SMILES": "COCCCOc1cc2c(cc1-c1nccs1)-c1c(cc(C(=O)O)c(=O)n1C1CC1)C(C)S2(=O)=O", "cells": "Primary human hepatocytes", "read by": "antigen / visual reading / absorbance", "result": "0.05–0.1 µM"}
{"SMILES": "Cc1c(C(=O)C(=O)NC2(C#C[C@H](C)O)COC2)c(C)n(C)c1C(=O)Nc1ccc(F)c(C#N)c1", "cells": "HepG2.2.15", "read by": "PCR", "result": "0.001–0.0099 µM"}
{"SMILES": "Cc1nc(-c2ccc(-n3c(=O)c4c(n5ncc(Cc6ccccc6)c35)CN(C(=O)c3ccc(Cl)c(C(F)(F)F)c3)[C@H](C)C4)cc2)n[nH]1", "cells": "HepG2.117", "read by": "luminescence", "result": "≤0.05 µM"}
{"SMILES": "C[C@@H](NC(=O)c1c2n(c(=O)n1-c1ccc(OC3CC3)cc1)CCN(C(=O)c1ccc(Br)c(Cl)c1)C2)c1ccc(OC2COC2)cc1F", "cells": "HepG2.117", "read by": "PCR", "result": "0.1–0.5 µM"}
{"SMILES": "Cn1nc2cc(NS(=O)(=O)NCc3cnn(-c4ccccn4)c3)ccc2c1C(=O)Nc1ccc(F)c(Cl)c1", "cells": "HepAD38", "read by": "PCR", "result": "100–1000 µM"}
{"SMILES": "COc1cc2ncnc(Nc3ccc(N4CCOCC4)cc3)c2cc1OC", "cells": "HUH 9B", "read by": "replicon", "result": "5–25 µM"}
{"SMILES": "O=C(O)c1cc2c(n(C3CC3)c1=O)-c1cc(Cl)c(OC[C@H]3COCCO3)cc1S(=O)(=O)C2", "cells": "Primary human hepatocytes", "read by": "antigen / visual reading / absorbance", "result": "0.1–0.5 µM"}
{"SMILES": "FC(F)(F)Oc1ccc2ncnc(Nc3ccc(N4CCOCC4)cc3)c2c1", "cells": "HUH 9B", "read by": "replicon", "result": "5–25 µM"}
{"SMILES": "CCOC(=O)C1=C(CN2CC(F)(F)[C@@H]3[C@H]2CON3C[C@H](OC(F)F)C(C)(C)C(=O)O)NC(c2nccs2)=N[C@H]1c1cccc(F)c1C", "cells": "HepG2.2.15", "read by": "PCR", "result": "0.023 µM"}
{"SMILES": "COCCCOc1cc2c(cc1C(F)(F)F)-c1c(cc(C(=O)O)c(=O)n1C1CC1)CS2(=O)=O", "cells": "Primary human hepatocytes", "read by": "antigen / visual reading / absorbance", "result": "0.05–0.1 µM"}
{"SMILES": "O=C(Nc1ccc(-c2nc3ccc(F)c(F)c3o2)cc1)C1CCOC1", "cells": "Primary human hepatocytes (PHH)", "read by": "antigen / luminescence", "result": "2.06 µg/mL"}
{"SMILES": "COC(=O)C1=C(CN2CC(F)(F)[C@H]3[C@@H]2CCN3C[C@@](C)(O)C(=O)O)NC(c2nccs2)=N[C@H]1c1cccc(F)c1F", "cells": "HepG2.2.15", "read by": "PCR", "result": "0.034 µM"}
{"SMILES": "CN1[C@H](C(=O)Nc2ccc(F)c(Cl)c2)C[C@H](c2ncc(-c3cn(C)cn3)s2)NS1(=O)=O", "strain or isolate": "Genotype D", "cells": "HepG2-NTCP", "read by": "ELISA / antigen", "result": "0.467 µM"}
{"SMILES": "COc1ccc(-n2c(C(=O)NCc3ccc(OC(F)F)cc3)c3n(c2=O)CCN(C(=O)c2ccc(Br)c(Cl)c2)C3)cc1", "cells": "HepG2.117", "read by": "PCR", "result": "0.1–0.5 µM"}
{"SMILES": "Cc1cc(NC(=O)c2c3c(cn2C)S(=O)(=O)NC2CN(C(=O)C(=O)NC4CC4)CC2(C)CO3)ccc1F", "cells": "HepAD38", "read by": "PCR", "result": "<0.5 µM"}
{"SMILES": "Cn1nc2cc(NC(=O)C(=O)C3CC3)ccc2c1C(=O)Nc1ccc(F)c(Cl)c1", "cells": "HepAD38", "read by": "PCR", "result": ">1000 µM"}
{"SMILES": "O=C(O)c1cc2c(n(C3CC3)c1=O)-c1cc(Cl)c(OCC3COC3)cc1S(=O)(=O)C2", "cells": "Primary human hepatocytes", "read by": "antigen / visual reading / absorbance", "result": "0.05–0.1 µM"}
{"SMILES": "Cc1nnnn1-c1ccc(-n2c(=O)c3c(n4ncc(Cc5ccccc5)c24)CN(C(=O)c2ccc(Br)c(C(F)(F)F)c2)[C@@H](C)C3)cc1", "cells": "HepG2.117", "read by": "luminescence", "result": "0.05–0.5 µM"}
{"SMILES": "C[C@H](NS(=O)(=O)Nc1ccc2c(C(=O)Nc3ccc(F)c(Cl)c3)n(C)nc2c1)c1ccccn1", "cells": "HepAD38", "read by": "PCR", "result": "100–1000 µM"}
{"SMILES": "C[C@@H]1Cc2c(n3ncc(CC4CCC4)c3n(-c3ccc(-c4nncn4C)cc3)c2=O)CN1C(=O)c1ccc(Br)c(Cl)c1", "cells": "HepG2.117", "read by": "luminescence", "result": "≤0.05 µM"}
{"SMILES": "Cc1c(C(=O)C(=O)NCC#CC2CC2)c(C)n(C)c1C(=O)Nc1ccc(F)c(C#N)c1", "cells": "HepG2.2.15", "read by": "PCR", "result": "0.001–0.0099 µM"}
{"SMILES": "Cn1cc(CCNC(=O)c2ccc3c(C(=O)Nc4ccc(F)c(Cl)c4)n(C)nc3c2)cn1", "cells": "HepAD38", "read by": "PCR", "result": "100–1000 µM"}